Positions count from the first letter of the chain named.
T1: LukS240-259 fragment clone displayed on phage (Staphylococcus aureus (phage PVL …, UniProt O80066))
T1 chain: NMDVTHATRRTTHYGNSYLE

B1: anti-HlgC1 MAb (antibody, V domains shown)
VH: QVQLLQSGAELVKPGASVQLSCKASGFTFTKHDINWVRQRPEQGLEWIGWIFPGDGNTKYNEKFKGKATLTTDKSSSTAYMQLNGLTSEDSAVYFCAKEIFYWGQGTSVTVSS
VL: DIVMTQSPSSLTVTAGEKVTMSCKSSQSLLNSENQRNYLTWYQQKPGQPPKLLISWASTRESGVPDRFTGSGSGTDFTLTISSVQAEDLAVYYCQNDFSYPLTFGAGTKLELR
notes: also called anti-HIgC1 MAb; source: murine B-cell hybridoma (BALB/c mice immunized with recombinant HlgC)
B2: anti-HlgC2 MAb (antibody, V domains shown)
VH: QVQLKESGPGLVAPSQSLSITCTVSGFSLTNFAVHWVRQPRGKGLEWLGSIWADGRTIYSALMSRLSISKDNSKSQVFLNMNSLQTDDTAMYYCATPFYFGYDGGYAMDHWGQGTSVTVSS
VL: DVLMTQTPLSLPVSLGDQASISCRSSQSIVHGSGNTYLEWYLQKPGQSPKLLIYKVSNRLSGVPDRISGSGSGTDFTLKINRVEAEDLGVYYCFQGSHVPYTFGGGTKLEMK
notes: also called anti-HIgC2 MAb; source: murine B-cell hybridoma (BALB/c mice immunized with recombinant HlgC)
B3: anti-HlgC3 MAb (antibody, V domains shown)
VH: B1 VH with H32Y, E42D, E62D, A68V, T69I, N84S, G85R, K98R, S113A
VL: B1 VL with L30F, G47R, G63E, F98Y
notes: also called anti-HIgC3 MAb; source: murine B-cell hybridoma (BALB/c mice immunized with recombinant HlgC)
B4: anti-HlgC4 MAb (antibody, V domains shown)
VH: B1 VH with H32Y, E42D, E62D, A68V, T69I, N84T, G85R, K98R
VL: B1 VL with F98Y
notes: also called anti-HIgC4 MAb; source: murine B-cell hybridoma (BALB/c mice immunized with recombinant HlgC)

Legend:
[1] = target: T1, LukS240-259 fragment clone displayed on …; experiment: ELISA; conditions: both partners purified
[2] = target: LukS168-259 fragment clone displayed on phage (Staphylococcus aureus (phage PVL …, UniProt O80066)); experiment: ELISA; conditions: both partners purified

Binder | binding result [1] | binding result [2]
B1 | binds | binds
B2 | binds | binds
B3 | binds | binds
B4 | binds | binds

Reference: PMC7298706 (mBio, 2020)
